Measured values from several laboratories, pooled; numbers as filed in NIAID ChemDB.

All rows: cytotoxicity tests; cell line: C8166; method: MTT; endpoint: CC50

CCn: concentration that lowers growth or viability of the cells by n%. Rows are shuffled and stem from different studies.

| structure | result |
|---|---|
| COc1ccc(-c2c[nH]c(=S)n2NC(=S)Nc2ccccc2C)cc1 | 20.91 µM |
| Oc1cc(O)c2c(c1)O[C@H](c1ccc(O)c(O)c1)[C@@H](O)C2 | >200 µg/mL |
| C=C(C)[C@]12C[C@@H](C)[C@@]34OC(c5ccccc5)(O[C@@H]1[C@@H]3[C@@H]1O[C@]1(CO)[C@@H](O)[C@@]1(O)[C@H]4C[C@H](C)[C@@H]1OC(=O)c1ccccc1)O2 | >200 µM |
| CCCCCCCCCCCCC(=O)O[C@@H]1[C@@H](C)[C@@]2(O)[C@@H](C=C(CO)C[C@]3(O)C(=O)C(C)=C[C@@H]23)[C@@H]2C(C)(C)[C@]12OC(=O)CCCCCCCCCCCC | >200 µM |
| C=C(C)[C@@]1(O)[C@H](OC(C)=O)[C@@H]2[C@H](OC(C)=O)[C@@]3(C)O[C@@]4([C@@H]3OC(=O)c3ccccc3)[C@@H](O)[C@@H](C)C[C@H]4[C@@]2(O)[C@H](C)[C@@H]1OC(=O)c1ccccc1 | 183.4 µg/mL |
| COc1cc(O)ccc1O[C@@H]1O[C@H](CO)[C@@H](O)[C@H](O)[C@H]1O | >200 µg/mL |
| COC1=C(C=O)CC[C@@H]2[C@H]3CCCN4CCC[C@@H](CN12)[C@@H]34 | >200 µg/mL |
| O=C(/C=C/c1ccc(O)c(O)c1)OC1C[C@@](O)(C(=O)O)C[C@H](O)[C@@H]1O | >200 µg/mL |
| C=C(C)[C@@]1(O)[C@H](O)[C@@H]2[C@H](OC(C)=O)[C@@]3(C)O[C@@]4([C@@H]3OC(=O)c3ccccc3)[C@@H](OC(C)=O)[C@@H](C)C[C@H]4[C@@]2(O)[C@H](C)[C@@H]1OC(=O)c1ccccc1 | >200 µg/mL |
| C[C@@H]1CC[C@@]2(O)C13CC(=O)C1(C)C2(C)CO[C@]1(OC(=O)c1ccccc1)[C@@H]3O | 238.2 µM |
| C=C(C)[C@@]12OC3(c4ccccc4)O[C@@H]1[C@@H]1[C@H](O)[C@](O)(CO)[C@@H](O)[C@]4(O)C(=O)C(C)=C[C@H]4[C@@]1(O3)[C@H](C)[C@H]2OC(=O)c1ccccc1 | >200 µM |
| Cc1nc2ccccc2n(CC(=O)NNC(=O)c2ccc(Cl)cc2)c1=O | 169 µM |
| C=C(C)[C@@]1(OC(=O)c2ccccc2)[C@H](OC(C)=O)[C@@H]2[C@H](OC(C)=O)[C@@]3(C)O[C@@]4([C@@H]3OC(C)=O)[C@@H](OC(=O)c3ccccc3)[C@@H](C)C[C@H]4[C@@]2(O)[C@H](C)[C@@H]1OC(C)=O | >200 µM |
| O=C1CCC[C@@H]2[C@H]3CCCN4CCC[C@@H](CN12)[C@@H]34 | >200 µg/mL |
| COc1ccc(-c2c[nH]c(=S)n2NC(=S)Nc2ccc(Cl)cc2)cc1 | 100.9 µM |
| COC(=O)c1cc(O)c(OS(=O)(=O)[O-])c(OC)c1.[Na+] | >200 µg/mL |
| CCCC(=O)OCC1=C[C@H]2[C@@H]3C(C)(C)[C@]3(OC(=O)CCC)[C@H](OC(=O)/C=C/c3ccc(OC)c(OC(C)=O)c3)[C@@H](C)[C@]2(O)[C@@H]2C=C(C)C(=O)[C@@]2(O)C1 | >200 µM |
| Cc1ccccc1OC1=C(C=O)CC[C@@H]2[C@H]3CCCN4CCC[C@@H](CN12)[C@@H]34 | 56.87 µg/mL |
| C=C(C)[C@@]1(OC(=O)c2ccccc2)[C@H](OC(C)=O)[C@@H]2[C@H](OC(C)=O)[C@@]3(C)O[C@@]4([C@@H]3O)[C@@H](O)[C@@H](C)C[C@H]4[C@@]2(O)[C@H](C)[C@@H]1OC(C)=O | >200 µM |
| COc1cc([C@@H]2c3c(cc(OC)c(O)c3OC)C[C@H](CO)[C@H]2COS(=O)(=O)[O-])cc(OC)c1O.[Na+] | >200 µg/mL |
| C=C(C)[C@@]1(O)[C@H](OC(=O)c2ccccc2)[C@@H]2[C@H](OC(C)=O)[C@@]3(C)O[C@@]4([C@@H]3OC(=O)c3ccccc3)[C@@H](OC(C)=O)[C@@H](C)C[C@H]4[C@@]2(O)[C@H](C)[C@@H]1O | 54.04 µg/mL |
| CC(=O)O[C@@H]1[C@@H](C)[C@@]2(O)[C@@H](C=C(CO)C[C@]3(O)C(=O)C(C)=C[C@@H]23)[C@@H]2C(C)(C)[C@]12OC(=O)CCCCn1ccc(=O)n(CCCCOC(=O)[C@@]2(C)CC[C@]3(C)CC[C@]4(C)C(=CC(=O)[C@@H]5[C@@]6(C)CC[C@H](C)C(C)(C)[C@@H]6CC[C@]54C)[C@@H]3C2)c1=O | >200 µM |
| S=C(Nc1ccc(Br)cc1)Nn1c(-c2ccc(Br)cc2)c[nH]c1=S | 88.11 µM |
| Oc1cc(O)c2c(c1)O[C@H](c1ccc(O)c(O)c1)[C@H](O)[C@H]2c1c(O)cc2c(c1O)C[C@@H](O)[C@@H](c1ccc(O)c(O)c1)O2 | >200 µg/mL |
| C=C(C)[C@@]1(OC(=O)c2ccccc2)[C@H](OC(C)=O)[C@@H]2[C@H](OC(C)=O)[C@@]3(C)O[C@@]4([C@@H]3OC(C)=O)[C@@H](OC(C)=O)[C@@H](C)C[C@H]4[C@@]2(O)[C@H](C)[C@@H]1OC(C)=O | 86.54 µg/mL |
| C=CCc1cc2c(c(CC=C(C)C)c1O)OCO2 | >813 µM |
| O=C(/C=C/c1ccc(O)cc1)O[C@@H]1Cc2c(O)cc(O)cc2O[C@@H]1c1ccc(O)c(O)c1 | 24.57 µg/mL |
| Cc1cccc(OC2=C(C=O)CC[C@@H]3[C@H]4CCCN5CCC[C@@H](CN23)[C@@H]45)c1 | 92.6 µg/mL |
| C=C(C)[C@@]1(OC(=O)c2ccccc2)[C@H](OC(C)=O)[C@@H]2[C@H](OC(C)=O)[C@@]3(C)O[C@@]4([C@@H]3OC(=O)c3ccccc3)[C@@H](OC(C)=O)[C@@H](C)C[C@H]4[C@@]2(O)[C@H](C)[C@@H]1OC(C)=O | 97.92 µg/mL |
| O=CC1=C(Oc2ccc(Cl)cc2)N2C[C@@H]3CCCN4CCC[C@@H]([C@H]34)[C@H]2CC1 | 90.12 µg/mL |
| Cc1cn([C@H]2C[C@H](N=[N+]=[N-])[C@@H](CO)O2)c(=O)[nH]c1=O | 1291 µM |
| O=C(O[C@@H]1Cc2c(O)cc(O)cc2O[C@@H]1c1ccc(O)c(O)c1)c1ccccc1 | 22.9 µg/mL |
| C=C(C)[C@]1(O)C[C@@H](C)[C@@]2(O)[C@H]([C@H]1OC(=O)c1ccccc1)[C@@H]1O[C@]1(CO)[C@@H](O)[C@]1(O)C(=O)C(C)=C[C@H]12 | >200 µM |
| O=CC1=C(Oc2ccccc2)N2C[C@@H]3CCCN4CCC[C@@H]([C@H]34)[C@H]2CC1 | 155 µg/mL |
| COc1cc(/C=C/C(=O)O[C@@H]2Cc3c(O)cc(O)cc3O[C@@H]2c2ccc(O)c(O)c2)ccc1O | 20.46 µg/mL |
| O=CC1=C(Oc2cccc3ccccc23)N2C[C@@H]3CCCN4CCC[C@@H]([C@H]34)[C@H]2CC1 | 176 µg/mL |
| C=C(C)[C@@]1(O)[C@H](OC(C)=O)[C@@H]2[C@H](OC(=O)c3ccccc3)[C@@]3(C)O[C@@]4([C@@H]3OC(=O)c3ccccc3)[C@@H](OC(C)=O)[C@@H](C)C[C@H]4[C@@]2(O)[C@H](C)[C@@H]1OC(C)=O | 41.95 µg/mL |
| C=CCc1cc2c(cc1OCC=C(C)C)OCO2 | 360.7 µM |
| COc1cc(OC)c2c(c1)C(=O)OC2 | >200 µg/mL |
| C=C(C)[C@@H]1CCC2C3(CC[C@]4(C)C(C(C)CC/C=C(/C)C(=O)OC)CC[C@@]24C)CC13CCC(=O)O | 78.7 µM |
| Cc1cccc(S(=O)(=O)c2c(C(=O)NNCCO)[nH]c3ccc(Cl)cc23)c1 | >100 µM |

Repeating the first 5 entries:

COc1ccc(-c2c[nH]c(=S)n2NC(=S)Nc2ccccc2C)cc1 ; result: 20.91 µM
Oc1cc(O)c2c(c1)O[C@H](c1ccc(O)c(O)c1)[C@@H](O)C2 ; result: >200 µg/mL
C=C(C)[C@]12C[C@@H](C)[C@@]34OC(c5ccccc5)(O[C@@H]1[C@@H]3[C@@H]1O[C@]1(CO)[C@@H](O)[C@@]1(O)[C@H]4C[C@H](C)[C@@H]1OC(=O)c1ccccc1)O2 ; result: >200 µM
CCCCCCCCCCCCC(=O)O[C@@H]1[C@@H](C)[C@@]2(O)[C@@H](C=C(CO)C[C@]3(O)C(=O)C(C)=C[C@@H]23)[C@@H]2C(C)(C)[C@]12OC(=O)CCCCCCCCCCCC ; result: >200 µM
C=C(C)[C@@]1(O)[C@H](OC(C)=O)[C@@H]2[C@H](OC(C)=O)[C@@]3(C)O[C@@]4([C@@H]3OC(=O)c3ccccc3)[C@@H](O)[C@@H](C)C[C@H]4[C@@]2(O)[C@H](C)[C@@H]1OC(=O)c1ccccc1 ; result: 183.4 µg/mL